Laboratory results: publication PMC4550849 (Scientific Reports, 2015)

Protein sequences, listed by entry. Tags and fused reporters are not part of them. Residues count along the entry.
UniProt P15917, 34-809 limits assumed: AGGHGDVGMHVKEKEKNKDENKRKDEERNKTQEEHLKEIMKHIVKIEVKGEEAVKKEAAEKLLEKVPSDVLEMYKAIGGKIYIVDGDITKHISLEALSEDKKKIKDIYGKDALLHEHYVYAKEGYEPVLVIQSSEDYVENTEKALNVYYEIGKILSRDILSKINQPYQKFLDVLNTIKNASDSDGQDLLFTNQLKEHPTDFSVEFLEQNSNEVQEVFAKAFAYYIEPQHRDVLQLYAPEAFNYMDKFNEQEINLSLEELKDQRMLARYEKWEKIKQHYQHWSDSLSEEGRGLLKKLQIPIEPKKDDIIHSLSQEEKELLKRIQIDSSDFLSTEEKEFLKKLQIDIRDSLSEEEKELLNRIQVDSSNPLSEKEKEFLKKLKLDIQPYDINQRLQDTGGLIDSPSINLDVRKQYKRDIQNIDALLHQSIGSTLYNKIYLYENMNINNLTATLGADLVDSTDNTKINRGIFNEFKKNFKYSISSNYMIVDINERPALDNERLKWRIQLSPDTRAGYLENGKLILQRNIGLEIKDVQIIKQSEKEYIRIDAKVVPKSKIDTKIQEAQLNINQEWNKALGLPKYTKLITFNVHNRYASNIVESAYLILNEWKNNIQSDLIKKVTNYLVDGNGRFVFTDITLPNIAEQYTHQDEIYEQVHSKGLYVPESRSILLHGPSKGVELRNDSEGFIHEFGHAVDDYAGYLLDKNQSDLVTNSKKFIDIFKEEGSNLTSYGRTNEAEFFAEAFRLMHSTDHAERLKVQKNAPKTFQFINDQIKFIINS

Molecular target: LF (Bacillus anthracis, UniProt P15917)
Assay type: biochemical

## surfen hydrate
  proteolytic activity of LF on MAPKK peptide (emission at 523 nm): no emission at 523 nm was seen
